Pooled drug test results. Numbers come from NIAID ChemDB, via PubChem.

All rows: growth or infection tests

Rows are shuffled and stem from different studies. An empty or dashed field is not shown. Inhibition is in % at the dose shown (toxicity tests: loss of growth or viability). Fold resistance has wild type as its base. ECn: concentration that inhibits the pathogen or its effect by n%. A number after MIC or MFC names an inhibition level or a share of isolates. a–b is a range or a potency band.

compound | read by | species | cells | dose | mutations | strain | read-out | result
CCc1nc(N)nc(N)c1-c1ccc(Cl)cc1 | cytopathic effect | Encephalitozoon cuniculi | MRC-5 fibroblasts | 20 µg/mL |  |  | inhibition | 1%
CO/N=C(/C(=O)N[C@@H]1C(=O)N2C(C(=O)O)=C(COC(N)=O)CS[C@H]12)c1ccco1 |  | Haemophilus influenzae |  |  |  | 44 strains | MIC50 | 8 µg/mL
COc1cc2oc(=O)ccc2cc1CC(O)C(C)(C)O |  | Klebsiella pneumoniae |  |  |  | ESBL-75799 | MIC | 125 µg/mL
CC[C@]1(O)C(=O)OCc2c1cc1n(c2=O)Cc2cc3cc4c(cc3nc2-1)OCO4 |  | Saccharomyces cerevisiae |  |  |  | JHY6-1C | MIC | >100 µg/mL
NC(=O)c1ncn([C@@H]2O[C@H](CO)[C@@H](O)[C@H]2O)n1 | plaque count | Respiratory syncytial virus | HEP-2 | 32 µg/mL |  | LONG | inhibition | 10%
Nc1nc(=O)n([C@@H]2CS[C@H](CO)O2)cc1F | p27 / ELISA | SIV | PBMC |  |  |  | EC50 | 0.1086 µM
NC(=O)c1ncn([C@@H]2O[C@H](CO)[C@@H](O)[C@H]2O)n1 | cytopathic effect | Measles virus | CV-1 |  |  | X-1108 | EC50 | 20 µg/mL
Nc1ncnc2c1ncn2C[C@@H](CO)OCP(=O)(O)O |  | Epstein-Barr virus | P3HR-1 | 1 µM |  |  | inhibition | 7%
C#C[C@]1(CO)O[C@@H](n2cnc3c(N)nc(F)nc32)CC1O | β-galactosidase / absorbance | HIV-2 | MAGIC-5A |  | Q151M M184V | ROD9 | fold resistance | 14
C[C@@H]1CN(c2c(F)c(N)c3c(=O)c(C(=O)O)cn(C4CC4)c3c2F)C[C@H](C)N1 | cytopathic effect | Encephalitozoon cuniculi | MRC-5 fibroblasts |  |  |  | EC50 | <20 µg/mL
c1cc(CN2CCCNCCNCCCNCC2)ccc1CN1CCCNCCNCCCNCC1 | p24 | HIV-1 | PBMC | 0.5 µM |  | PCP1 CLADE C R5 CXCR6 | inhibition | 34%
CCOc1cc(Cc2cnc(N)nc2N)cc(OCC)c1-n1cccc1 |  | Mycobacterium ulcerans |  |  |  | Isolate 94-539 | MIC | 0.5 µg/mL
CCc1c2c(nc3ccc(O)cc13)-c1cc3c(c(=O)n1C2)COC(=O)[C@]3(O)CC |  | Saccharomyces cerevisiae |  |  |  | Mutant ΔERG6 ΔTOP1 | MIC | >100 µg/mL
Nc1nc2c(ncn2CCC(CO)CO)c(=O)[nH]1 | cytopathic effect | Adenovirus | HEL |  |  | TYPE 2 | EC50 | ≥500 µM
OC1c2ccccc2C=Cc2ccccc21 | plaque count | Rhinovirus | HELA-H1 | 20 µM |  | TYPE 16 | inhibition | 50%
Nc1nc2c(ncn2CCC(CO)CO)c(=O)[nH]1 | plaque count | Varicella zoster virus | HEL |  |  | PFA-resistant/A | EC50 | 1.67 µg/mL
Nc1ccc(S(=O)(=O)Nc2ncccn2)cc1 | cytopathic effect | Encephalitozoon cuniculi | MRC-5 fibroblasts |  |  |  | EC50 | >50 µg/mL
Nc1ncnc2c1ncn2CCOCP(=O)(O)O |  | Epstein-Barr virus | P3HR-1 | 10 µM |  |  | inhibition | 5%
CC[C@@]1(O)C(=O)OCc2c1cc1n(c2=O)Cc2c-1nc1cc3c(cc1c2CCl)OCO3 |  | Saccharomyces cerevisiae |  |  |  | JHY6-1C | MIC | 3.12 µg/mL
Nc1ccn(C[C@@H](CO)OCP(=O)(O)O)c(=O)n1 | plaque count | Varicella zoster virus | HEL |  |  | PMEA-resistant | EC50 | 0.24 µg/mL
Nc1ccc(S(=O)(=O)Nc2ncccn2)cc1 |  | Toxoplasma gondii |  | 2 µg/mL |  |  | inhibition | 55%
C#CC[C@@H](C(=O)N[C@H](/C=C/C(=O)OCC)C[C@@H]1CCNC1=O)n1cccc(NC(=O)c2cc(C)on2)c1=O | cytopathic effect / XTT | Rhinovirus | H1-HELA | 0.325 µM |  | Serotype 12 | inhibition | 90%
Nc1ncnc2c1ncn2CCOCP(=O)(O)O | hybridisation | Duck hepatitis B virus | Primary duck hepatocytes |  |  |  | EC50 | 0.14 µM
Nc1ncnc2c1ncn2C[C@@H](CO)OCP(=O)(O)O | plaque count | Varicella zoster virus | HEL |  |  | PMEA-resistant | EC50 | 0.027 µg/mL
CCO/N=C/c1ccc(OCCC2CCN(c3ccc(C)nn3)CC2)cc1 | neutral red | Rhinovirus | KB |  |  | 47-CV21 (ICAM-1 receptor group 21) | EC50 | 0.005 µM
CC(=O)N1CCN(c2ccc(OC[C@H]3CO[C@](Cn4ccnc4)(c4ccc(Cl)cc4Cl)O3)cc2)CC1 |  | Candida albicans |  |  |  | Isogenic isolate 11 (25X) | MIC | ≤0.008 µg/mL
CCCN1CCN(c2cc(=O)c3nc4c(oc3c2)c2c(=O)c3c(O)c(C)c5c(c34)=C(O)[C@@](C)(O/C=C/[C@H](OC)[C@@H](C)[C@@H](OC(C)=O)[C@H](C)[C@H](O)[C@H](C)[C@@H](O)[C@@H](C)/C=C/C=C(/C)C(=O)N2)O5)CC1 |  | Staphylococcus aureus |  |  |  | 20 strains (methicillin-susceptible) | MIC50 | 0.0039 µg/mL
Nc1nc2c(ncn2COC(CO)CO)c(=O)[nH]1 | plaque count | Varicella zoster virus | HEL |  |  | PFA-resistant/B | EC50 | 0.3 µg/mL
CC[C@H]1OC(=O)[C@H](C)[C@@H](O[C@H]2C[C@@](C)(OC)[C@@H](O)[C@H](C)O2)[C@H](C)[C@@H](O[C@@H]2O[C@H](C)C[C@H](N(C)C)[C@H]2O)[C@](C)(OC)C[C@@H](C)C(=O)[C@H](C)[C@@H](O)[C@]1(C)O |  | Staphylococcus aureus |  |  |  | 20 strains (methicillin-resistant) | MIC90 | >32 µg/mL
Cc1ncc([N+](=O)[O-])n1CCO | cytopathic effect | Encephalitozoon cuniculi | MRC-5 fibroblasts | 2 µg/mL |  |  | inhibition | 0%
C[C@H]1COc2c(N3CCN(C)CC3)c(F)cc3c(=O)c(C(=O)O)cn1c23 |  | Haemophilus influenzae |  |  |  | 38 strains (ampicillin-susceptible) | MIC50 | 0.015 µg/mL
NC1CCN(c2c(F)cc3c(=O)c(C(=O)O)cn(C4CC4)c3c2Cl)C1 |  | Enterococcus faecium |  |  |  | 10 strains | MIC50 | 0.25 µg/mL
CN(C)c1cc(NC(=O)CNC(C)(C)C)c(O)c2c1C[C@H]1C[C@H]3[C@H](N(C)C)C(=O)C(C(N)=O)=C(O)[C@@]3(O)C(=O)C1=C2O | broth dilution | Mycobacterium abscessus |  |  |  | AC1 | MIC | 1 µg/mL
CN1CCN(c2c(F)cc3c(=O)c(C(=O)O)cn4c3c2SCC4CF)CC1 |  | Haemophilus influenzae |  |  |  | 44 strains | MIC50 | 0.12 µg/mL
Nc1ncc2c(ncn2COC(CO)CO)n1 | cytopathic effect | Adenovirus | HEL |  |  | TYPE 2 | EC50 | 0.57 µM
COc1c(N2CCNC(C)C2)c(F)cc2c(=O)c(C(=O)O)cn(C3CC3)c12 |  | Haemophilus influenzae |  |  |  | 38 strains (ampicillin-susceptible) | MIC90 | 0.008 µg/mL
C=CC(C)(C)C1=Cc2cc3c(cc2OC1=C)OC(C(C)(C)OC(C)=O)C3 | PCR | Epstein-Barr virus | Akata-Bx1 |  |  |  | EC50 | 2.38 µM
O=c1cnn([C@@H]2O[C@H](CO)[C@@H](O)[C@H]2O)c(=O)[nH]1 | cytopathic effect | Dengue virus | VERO |  |  | TYPE 2 (NGC) | EC50 | 0.2 µg/mL
C[C@H](Cn1cnc2c(N)ncnc21)OCP(=O)(O)O | hybridisation | Duck hepatitis B virus | Primary duck hepatocytes |  |  |  | EC50 | 0.11 µM
CC(=O)NC[C@H]1CN(c2ccc(N3CCN(C(=O)CO)CC3)c(F)c2)C(=O)O1 |  | Streptococcus pneumoniae |  |  |  | Penicillin-resistant | MIC50 | 0.25–0.5 µg/mL
Nc1ncnc2c1ncn2C[C@@H](CO)OCP(=O)(O)O | PCR | Adenovirus | HEL |  |  | TYPE 2 | EC50 | 0.63 µM
c1ccc2c(c1)oc1ccccc12 | cytopathic effect | Rhinovirus | HELA-H1 |  |  | TYPE 16 | EC50 | >200 µM
Cc1onc(-c2ccccc2)c1C(=O)N[C@@H]1C(=O)N2[C@@H]1SC(C)(C)[C@@H]2C(=O)O |  | Staphylococcus aureus |  |  |  | 25 strains (ofloxacin-resistant) | MIC50 | >128 µg/mL
O=C1N(Cc2ccc(CO)cc2)[C@H](Cc2ccccc2)[C@H](O)[C@@H](O)[C@@H](Cc2ccccc2)N1Cc1ccc(CO)cc1 | p24 | HIV-1 | PBMC | 0.14 µM |  | Y clinical isolate | inhibition | 90%
NC(=O)c1ncn([C@@H]2O[C@H](CO)[C@@H](O)[C@H]2O)c1O | plaque count | Parainfluenza virus | VERO |  |  | TYPE 2/GREER | EC50 | 22.1 µg/mL
CC[C@H]1OC(=O)[C@H](C)[C@@H](O[C@H]2C[C@@](C)(OC)[C@@H](O)[C@H](C)O2)[C@H](C)[C@@H](O[C@@H]2O[C@H](C)C[C@H](N(C)C)[C@H]2O)[C@](C)(O)C[C@@H](C)CN(C)[C@H](C)[C@@H](O)[C@]1(C)O | cytopathic effect | Encephalitozoon cuniculi | MRC-5 fibroblasts |  |  |  | EC50 | 200 µg/mL
CC[C@@]1(O)C(=O)OCc2c1cc1n(c2=O)Cc2cc3cc4c(cc3nc2-1)OCO4 |  | Saccharomyces cerevisiae |  |  |  | JHY6-1C | MIC | >100 µg/mL
O=C(O)c1cc2oc3ccccc3c2cc1O | plaque count | Rhinovirus | HELA-H1 | 20 µM |  | TYPE 16 | inhibition | 85%
COc1cc2c[n+](C)c3c4cc5c(cc4ccc3c2cc1OC)OCO5 |  | Saccharomyces cerevisiae |  |  |  | Mutant ΔERG6 ΔTOP1 | MIC | 3.12 µg/mL
CC1(C)S[C@@H]2[C@H](NC(=O)[C@H](N)c3ccc(O)cc3)C(=O)N2[C@H]1C(=O)O |  | Haemophilus influenzae |  |  |  | 44 strains | MIC90 | >128 µg/mL
Nc1ncnc2c1ncn2Cc1c(F)cccc1Cl | cytopathic effect | Encephalitozoon cuniculi | MRC-5 fibroblasts | 1 µg/mL |  |  | inhibition | 0%
OC(Cn1cncn1)(Cn1cncn1)c1ccc(F)cc1F | broth dilution | Candida albicans |  |  |  | YL 360 | MIC | 256 µg/mL
NC(=O)c1nc(F)c[nH]c1=O | plaque count | Influenza C virus | MDCK |  |  | Taylor/1233/47 | EC50 | 0.044 µg/mL
COc1cc(Cc2cnc(N)nc2N)cc(OC)c1OCCCNc1ccc(S(=O)(=O)c2ccc(N)cc2)cc1 |  | Mycobacterium ulcerans |  |  |  | Isolate 94-539 | MIC | 2 µg/mL
O=c1[nH]c(=O)n([C@H]2C[C@H](O)[C@@H](CO)O2)cc1/C=C/Br | PCR | Adenovirus | HEL |  |  | TYPE 2 | EC50 | >500 µM
CC[C@@]1(O)C(=O)OCc2c1cc1n(c2=O)Cc2cc3c(N)cccc3nc2-1 |  | Saccharomyces cerevisiae |  |  |  | Mutant ΔERG6 | MIC | >100 µg/mL
C[C@@H]1CN(c2c(F)c(N)c3c(=O)c(C(=O)O)cn(C4CC4)c3c2F)C[C@H](C)N1 |  | Staphylococcus aureus |  |  |  | 25 strains (methicillin-susceptible) | MIC50 | 0.12 µg/mL
CC[C@H]1OC(=O)[C@H](C)[C@@H](O[C@H]2C[C@@](C)(OC)[C@@H](O)[C@H](C)O2)[C@H](C)[C@@H](O[C@@H]2O[C@H](C)C[C@H](N(C)C)[C@H]2O)[C@](C)(OC)C[C@@H](C)C(=O)[C@H](C)[C@@H](O)[C@]1(C)O | broth dilution | Mycobacterium massiliense |  |  |  | V30 | MIC | 0.125 µg/mL

Again, the opening 5 rows:

compound | read by | species | cells | dose | mutations | strain | read-out | result
CCc1nc(N)nc(N)c1-c1ccc(Cl)cc1 | cytopathic effect | Encephalitozoon cuniculi | MRC-5 fibroblasts | 20 µg/mL |  |  | inhibition | 1%
CO/N=C(/C(=O)N[C@@H]1C(=O)N2C(C(=O)O)=C(COC(N)=O)CS[C@H]12)c1ccco1 |  | Haemophilus influenzae |  |  |  | 44 strains | MIC50 | 8 µg/mL
COc1cc2oc(=O)ccc2cc1CC(O)C(C)(C)O |  | Klebsiella pneumoniae |  |  |  | ESBL-75799 | MIC | 125 µg/mL
CC[C@]1(O)C(=O)OCc2c1cc1n(c2=O)Cc2cc3cc4c(cc3nc2-1)OCO4 |  | Saccharomyces cerevisiae |  |  |  | JHY6-1C | MIC | >100 µg/mL
NC(=O)c1ncn([C@@H]2O[C@H](CO)[C@@H](O)[C@H]2O)n1 | plaque count | Respiratory syncytial virus | HEP-2 | 32 µg/mL |  | LONG | inhibition | 10%